What follows are molecules tested on SARS-CoV-2.
Assay type: cell-based, SARS-CoV-2 (USA-WA1/2020)
`CCC(O[N+](=O)[O-])C12CC3(C)CC(C)(CC(CCN)(C3)C1)C2` (stereo not shown) [NMT8] was tested, and the “Selectivity Index CC50/EC50” value was 4.36.
In the case of `NCC1(c2cccc(O[N+](=O)[O-])c2)C2CC3CC(C2)CC1C3` (stereo not shown) [NMT7], the “Selectivity Index CC50/EC50” value is reported as 1.88.
For `CCC12CC3CC(N)(C1)CC(CO[N+](=O)[O-])(C3)C2` (stereo not shown) [NMT2], the “Selectivity Index CC50/EC50” value was 5.40.
With `CC12CC3(C)CC(CCN)(C1)CC(CO[N+](=O)[O-])(C2)C3` [NMT6] the “Selectivity Index CC50/EC50” value was 5.32.

— US20230218548A1 (priority 2020, published 2023)
